Values from PubChem BioAssay AID504761 (Drosophila RNAi Screening Center, 2011).
The screen tested about 22,000 reagents; below is a random part of those with a known target gene and a result. Of all reagents, 116 (0.52%) were called active. 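Calls depend on retest data that are not deposited; infection was ranked per plate without normalising between plates; the unit of the infection score is not given.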 Raw values are not corrected between plates. Unmarked entries are inactive. Reagents against one gene are numbered here. A plus sign joins genes that one reagent is predicted to hit. The record does not give: the amount of reagent, the time to read-out.

Test: 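Genome-wide fly cell screen for genes dengue virus requires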 (primary screen)
System: D.Mel-2 cells from Drosophila
Reagent: long dsRNA against Drosophila genes
Treatment: infection with dengue virus type 2; dose and infection time not stated
Detection: 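Per well on two replicate plates, imaging gave the percent of cells positive for viral envelope protein, ranked by infection, and a nuclear count of cells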
Scale: infection score: higher = more virus-infected cells; cell count: higher = more cells in the well
Call rule: 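Very low infection ranking in both replicate wells (chance probability at most 0.065), then a retest showing infection dropped 1.5-fold or more at p below 0.05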
Meaning of the calls: active = confirmed: knock-down lowers infection; inactive = not picked or not confirmed

infection score, replicate 1	infection score, replicate 2	cell count, replicate 1	cell count, replicate 2	predicted target	reagent
4.62	9.85	6487	6872	Doc2	1
3.08	1.76	6196	6637	Doc2	2
3.07	2.56	6585	6494	CG15412	1
5.75	8.58	6503	5839	Xbp1	1
1.59	2.76	5656	5975	Xbp1	2
15.9	14.6	5542	5686	CG4951	1
3.77	3.01	6318	6410	Vm26Ab	1
1.8	9.28	6177	6150	Vm26Ab	2
3.72	6.36	6452	6586	Det	1
	3.81	325	1024	CG5863	1
2.32	0.63	5686	6152	upSET	1
9.32	6.39	5978	5851	brat	1
4.61	4.55	6935	6597	CG8617	1
2.47	1.79	6474	6799	hppy	1
2.08	3.26	6683	6509	hppy	2
1.72	1.22	6286	6236	hppy	3
7.89	13.8	6375	5781	hppy	4
1	2.15	6393	6404	CG17378	1
2.92	4.36	6861	7025	CG3038	1
2.14	7.23	5790	5699	CG2209	1
7.5	3.57	6264	6910	Sugb	1
3.46	12.2	6326	5958	CG30148	1
6.07	8.22	6180	6264	CG1103	1
31.2	13	3305	6900	Cfp1 + CG17440	1
3.75	3.46	6584	6529	CG13251	1
22.5	21.9	4665	5923	CG13251	2
3.6	3.92	6444	6601	ND-42	1
1.86	2.87	5973	5861	ND-42	2
24.1	3.94	5079	6903	CG5084	1
19.8	5.59	5630	716	CG5084	2
7.62	4.87	6680	6507	AQP	1
7.31	4.85	6433	6373	TBC1D16	1
5.57	12.9	6047	6444	Cortactin	1
12	28	905	5482	Cortactin	2
3.41	9.58	6279	6515	CG7289	1
21.2	12.4	5452	4748	CG12540	1
2.66	1.4	5799	5804	CG32450	1
4.32	9.09	5486	6610	CG9922	1
9.68	2.3	6330	6183	CG9922	2
3.36	1.91	6188	6582	CG10470	1
1.99	2.24	6283	5926	mRpL20	1
6.66	11.9	6442	5402	CG4210	1
17.2	13.6	5947	6214	CG4210	2
	26.1	350	4474	CG10761	1
18.3	10.6	5172	5245	CG10761	2
23.3	17.3	6333	5417	CG43339 + CG43338	1
2.14	1.88	6015	5737	CG30378	1
22.8	7.79	6065	6268	stl	1
1.9	0.94	6008	7024	CG11068	1
0.63	0.25	6183	5905	Fur1	1
1.04	5.5	5989	6238	Fur1	2
7.35	7.98	6697	5900	Vang	1
4.72	4.61	6037	6444	MetRS	1
5.03	10.8	6003	5836	Gk2	1
4.37	2.61	6549	5986	CG5386	1
8.52	1.82	6823	6769	CG34149	1
14.5	12	5504	5954	mRpS7	1
18.4	2.24	5490	894	eEF5	1

Sorted by “infection score, replicate 1” (high to low): 3 of the entries above
infection score, replicate 1	infection score, replicate 2	cell count, replicate 1	cell count, replicate 2	predicted target	reagent
8.52	1.82	6823	6769	CG34149	1
5.03	10.8	6003	5836	Gk2	1
4.37	2.61	6549	5986	CG5386	1
